Reference: US7811577B2 (priority 2004, dated 2010)

Tested on: HIV-1 HXB2

CC[C@H](C)[C@H](NC(C)=O)C(=O)N[C@@H](CCCCN)C(=O)N[C@@H](CCCCN)C(=O)N[C@@H](CCC(=O)O)C(=O)N[C@H](C(=O)N[C@@H](CCC(=O)O)C(=O)N[C@@H](C)C(=O)N[C@H](C(=O)N[C@@H](CCCCN)C(=O)N[C@@H](CCCCN)C(=O)N[C@@H](CCC(=O)O)C(=O)N[C@@H](CCC(N)=O)C(=O)N[C@@H](CCC(=O)O)C(=O)N[C@@H](C)C(=O)N[C@H](C(=O)N[C@@H](CCCCN)C(=O)N[C@@H](CCCCN)C(=O)N[C@@H](CCCCN)C(=O)N[C@H](C(=O)N[C@@H](CCC(=O)O)C(=O)N[C@@H](C)C(=O)N[C@H](C(=O)N[C@@H](CCC(=O)O)C(=O)N[C@@H](CCCCN)C(=O)N[C@@H](CC(C)C)C(=O)N[C@@H](CC(C)C)C(=O)N[C@@H](CCC(N)=O)C(=O)N[C@@H](CC(C)C)C(=O)N[C@H](C(=O)N[C@H](C(=O)N[C@@H](Cc1c[nH]c2ccccc12)C(=O)NCC(=O)N[C@H](C(=O)N[C@@H](CCCCN)C(=O)N[C@@H](C)C(=O)N[C@@H](CC(C)C)C(=O)N[C@@H](C)C(=O)N[C@@H](C)C(=O)N[C@@H](C)C(=O)N[C@H](C(=O)N[C@@H](C)C(N)=O)[C@@H](C)CC)[C@@H](C)CC)C(C)C)[C@@H](C)O)[C@@H](C)CC)[C@@H](C)CC)[C@@H](C)CC)[C@@H](C)CC)[C@@H](C)CC [IZN17Ala4]
anti-viral activity against HIV-1 HXB2, in words: retain anti-viral activity | IC50 (read-out: IC50 against HIV-1 HXB2): 25 nM
